According to patent publication US20220000860A1, “COMPOUNDS, COMPOSITIONS, AND METHODS FOR TREATING HUMAN IMMUNODEFICIENCY VIRUS” (OYAGEN, INC., priority 2017, published 2022):

Assays:
Format in all cases: cell-based, HIV
00KE_KER2008 (Subtype A) = test: PBMC Acute Infection, 00KE_KER2008; settings: for SI50: SI50=CC50/EC50, isolate 00KE-KER2008, subtype A; for SI90: SI90=CC90/EC90, isolate 00KE-KER2008, subtype A
Experimental: (§1) PHA-stimulated cells from at least two normal donors were pooled (i.e. mixed together), diluted in fresh medium to a final concentration of 1×10^6 cells/mL, and plated in the interior wells of a 96-well round bottom microplate at 50 μL/well (5×10^4 cells/well). Pooling of mononuclear cells from more than one donor was used to minimize the variability observed between individual donors in quantitative and qualitative differences in HIV infection and overall response to the PHA and IL-2 of primary lymphocyte populations. Each plate contained virus control wells (cells plus virus) and experimental wells (drug plus cells plus virus) of either 00KE_KER2008 (Subtype A), IIIB (Subtype B), or 98US_MSC5016 (Subtype C). Test drug dilutions were prepared at a 2×concentration and 100 μL of each concentration was placed in appropriate wells. Fifty μL of a predetermined dilution of virus stock was placed in each test well (final MOI≅0.1). After this period, cell-free supernatant samples were collected for analysis of reverse transcriptase (RT) activity with an RT assay. […] In the Table below SI50=CC50/EC50 and SI90=CC90/EC90.

98US_MSC5016 (Subtype C) = test: PBMC Acute Infection, 98US_MSC5016; settings: for SI50: SI50=CC50/EC50, isolate 98US_MSC5016, subtype C; for SI90: SI90=CC90/EC90, isolate 98US_MSC5016, subtype C
Experimental: as §1

IIIB (Subtype B) = test: PBMC Acute Infection, IIIB; settings: for SI50: SI50=CC50/EC50, isolate IIIB; for SI90: SI90=CC90/EC90, isolate IIIB
Experimental: as §1

SMILES | SI50 (00KE_KER2008 (Subtype A)) | SI90 (00KE_KER2008 (Subtype A)) | SI50 (98US_MSC5016 (Subtype C)) | SI90 (98US_MSC5016 (Subtype C)) | SI50 (IIIB (Subtype B)) | SI90 (IIIB (Subtype B))
CC[C@@]1(O)C(=O)NCc2c1cc1n(c2=O)Cc2cc3c(N)cccc3nc2-1 [Compound O5-9A, (S)-10-Amino-4-ethyl-4-hydroxy-1,2-dihydroquinolino[2′,3′:3,4]pyrrolo[1,2-b][2,7]naphthyridine-3,14(4H,12H)-dione] | 185 | >435 | 154 | >455 | 68 | >318
CCc1c2c(nc3ccc(N)cc13)-c1cc3c(c(=O)n1C2)CNC(=O)[C@]3(O)CC [Compound O5-SN, (S)-9-Amino-4,11-diethyl-4-hydroxy-1,2-dihydroquinolino[2′,3′:3,4]pyrrolo[1,2-b][2,7]naphthyridine-3,14(4H,12H)-dione] | 422 | >5618 | 457 | >5000 | 753 | >4020
CCc1c2c(nc3ccc(OC(=O)N4CCC(N5CCCCC5)CC4)cc13)-c1cc3c(c(=O)n1C2)CNC(=O)[C@]3(O)CC [Irino-L, (S)-4,11-diethyl-4-hydroxy-3,14-dioxo-1,2,3,4,12,14-hexahydroquinolino[2′,3′:3,4]pyrrolo[1,2-b][2,7]naphthyridin-9-yl [1,4′-bipiperidine]-1′-carboxylate] | 8 | 11 | 10 | 12 | 8 | 10
CCc1c2c(nc3ccc(O)cc13)-c1cc3c(c(=O)n1C2)CNC(=O)[C@]3(O)CC [SN38-L, (S)-4,11-Diethyl-4,9-dihydroxy-1,2-dihydroquinolino[2′,3′:3,4]pyrrolo[1,2-b][2,7]naphthyridine-3,14(4H,12H)-dione] | 315 | 1824 | 315 | 1766 | 464 | 982
